Compound potency records, mixed from different reports. Data source: NIAID ChemDB in PubChem.

All rows: tests in culture; organism: Vesicular stomatitis virus; cells: HeLa; method: cytopathic effect; endpoint: EC50

Rows are shuffled and stem from different studies.

structure | strain | value
Nc1nccc2c1ncn2[C@@H]1C[C@H](CO)[C@@H](O)[C@H]1O |  | 4 µg/mL
OC[C@H]1O[C@@H](n2cnc3cc(Cl)c(Cl)cc32)[C@@H](O)[C@@H]1O |  | >10 µg/mL
Nc1nccc2c1ncn2[C@@H]1O[C@H](CO)[C@@H](O)[C@H]1O |  | 20 µg/mL
C[C@H]1C[C@@H](n2cnc3c(N)ncnc32)[C@H](O)[C@@H]1O |  | 2 µg/mL
Clc1cc2nc[nH]c2cc1Cl |  | >10 µg/mL
CCCOC(=O)C(CCSC[C@H]1O[C@@H](n2ccc3c(N)ncnc32)[C@H](O)[C@@H]1O)NC(=O)C(F)(F)F |  | 20 µg/mL
O=c1[nH]c(=O)n([C@H]2C[C@H](O)[C@@H](CO)O2)cc1/C=C/Br |  | >400 µg/mL
O=[N+]([O-])c1cc(Cl)c(Cl)cc1[N+](=O)[O-] |  | >4 µg/mL
NC(=O)c1c[se]c([C@@H]2O[C@H](CO)[C@@H](O)[C@H]2O)n1 | Indiana | 9 µg/mL
Nc1ccn([C@@H]2C[C@H](CO)[C@@H](O)[C@H]2O)c(=O)n1 |  | 2 µg/mL
Nc1ncnc2c1ccn2[C@@H]1O[C@H](CO)[C@@H](O)[C@H]1O |  | 0.07 µg/mL
Nc1nccc2c1ncn2[C@@H]1O[C@H](CO)[C@@H](O)[C@H]1O |  | 2 µg/mL
Nc1ncnc2c1ncn2[C@@H]1O[C@H](C#CBr)[C@@H](O)[C@H]1O |  | 45 µM
Nc1ncnc2c1c(Br)cn2[C@@H]1O[C@H](CO)[C@@H](O)[C@H]1O |  | 0.07 µg/mL
Nc1nc(Cl)c2nnn(C[C@H]3CC[C@@H](CO)C3)c2n1 |  | >200 µg/mL
OCCOC(CO)n1cnc2cc(Cl)c(Cl)cc21 |  | >200 µg/mL
Nc1nc(Cl)c2ncn(C[C@H]3CC[C@@H](CO)C3)c2n1 |  | >10 µg/mL
O[C@H]1[C@@H](O)COC(n2cnc3cc(Cl)c(Cl)cc32)[C@@H]1O |  | >200 µg/mL
Nc1nccc2c1ncn2[C@@H]1C[C@H](CO)[C@@H](O)[C@H]1O |  | 2 µg/mL
Nc1ncnc2c1ncn2C[C@H](O)CO |  | >400 µg/mL

2 of the rows above, restated:

structure	strain	value
O=[N+]([O-])c1cc(Cl)c(Cl)cc1[N+](=O)[O-]		>4 µg/mL
Nc1ncnc2c1c(Br)cn2[C@@H]1O[C@H](CO)[C@@H](O)[C@H]1O		0.07 µg/mL

ECn is the concentration giving n% inhibition of infection, replication or growth. Blank or dashed fields: not listed here.